{"source": "paper PMC10140725", "about": "(Scientific Reports, 2023)", "key": {"[1]": {"target": "T1, hemagglutinin (HA) of H1N1 influenza A strain A/Hickox/JY2/1940, mature HA1/HA2 trimer (Influenza A virus H1N1, …)", "T1 construct": "also called 6ONA; copies: 3 + 3", "test": "SEC", "conditions": "both partners purified"}, "[2]": {"target": "T2, hemagglutinin (HA) of H1N1 influenza A strain A/Denver/57/1957, mature HA1/HA2 (Influenza A virus H1N1, strain …)", "T2 construct": "also called A/Denver/57 HA; A/Denver/1957 HA; copies: 3 + 3", "test": "crystal structure", "conditions": "both partners purified"}}}
{"binder": "anti-influenza head-binding antibody C05 fragment antigen binding (Fab) (Fab, V domains shown, also called C05 Fab; C05 antibody; not shown: His6, C-terminal, kept) VH: EVQLQESGGGLVQPGESLRLSCVGSGSSFGESTLSYYAVSWVRQAPGKGLEWLSIINAGGGDIDYADSVEGRFTISRDNSKETLYLQMTNLRVEDTGVYYCAKHMSMQQVVSAGWERADLVGDAFDVWGQGTMVTVSS VL: DIQLTQSPSSLSASVGDRVTLTCQASQDIRKFLNWYQQKPGKGPKLLIYDASNLQRGVPSRFSGGGSGTDFTLIISSLQPEDVGTYYCQQYDGLPFTFGGGTKVVIK", "values": [{"measurement": "binding result", "setting": "[1]", "value": "no binding"}, {"measurement": "binding result", "setting": "[2]", "value": "binds"}]}
